Values from PubChem BioAssay AID624099 (ICCB-Longwood, 2012).

Screen: 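Human genes that papillomavirus E2 requires to repress the HPV18 LCR promoter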 (primary screen)
Cell system: human C33A cervical carcinoma cells (HPV-negative) stably expressing BPV1 E2 and an HPV18 LCR luciferase reporter
Knock-down reagent: siRNA pool against human genes, 40 nM
Timing: 72 h
Measurement: 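HPV18 LCR reporter light per well, converted to plate-wise z-scores that exclude control wells, and averaged over triplicate plates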
Scale: mean z-score and z-score: higher = stronger reporter signal, weaker E2 silencing
Rule for the call: 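Hit if mean z-score reaches 2 and two or more of three replicate z-scores also reach 2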
The whole screen tested about 21,000 reagents; below is an unselected part. Of all reagents, 497 (2.4%) were called active. 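Higher z means weaker E2 silencing; only reporter increases were scored, and knock-downs that hurt cell survival may mask genuine repressor factors.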

| Gene | mean z-score | z-score, replicate A | z-score, replicate B | z-score, replicate C | call |
| --- | --- | --- | --- | --- | --- |
| CAPZA1 | -0.2 | -0.44 | -0.19 | 0.01 | inactive |
| RASL12 | -0.9 | -0.58 | -1.18 | -0.95 | inactive |
| TTLL5 | 0.59 | 0.69 | 0.6 | 0.48 | inactive |
| KRTAP5-11 | 0.68 | 0.88 | 0.58 | 0.59 | inactive |
| CHMP2B | -0.81 | -0.82 | -0.88 | -0.73 | inactive |
| MOB2 | -0.04 | 0.39 | -0.23 | -0.28 | inactive |
| EML3 | 0.19 | 0.06 | 0.54 | -0.02 | inactive |
| SRD5A2 | -0.67 | -0.75 | -0.95 | -0.29 | inactive |
| CAPN3 | -1.32 | -1.43 | -1.17 | -1.38 | inactive |
| DIPK1A | 0.42 | 0.34 | 0.64 | 0.29 | inactive |
| PA2G4 | 1.45 | 1.18 | 1.49 | 1.68 | inactive |
| SAMD13 | 1.33 | 1.14 | 1.36 | 1.5 | inactive |
| MBD3L1 | 2.39 | 2.46 | 2.27 | 2.44 | active |
| GSTO2 | -0.59 | -0.69 | -0.61 | -0.49 | inactive |
| TRIM45 | -0.19 | -0.05 | -0.37 | -0.13 | inactive |
| EPS8 | 0.11 | -0.18 | 0.3 | 0.21 | inactive |
| DENND3 | -1.33 | -1.2 | -1.43 | -1.37 | inactive |
| BAG6 | -0.18 | 0.2 | -0.11 | -0.63 | inactive |
| CFAP107 | -0.04 | -0.23 | 0.42 | -0.31 | inactive |
| ZNF718 | 1.16 | 0.87 | 1 | 1.62 | inactive |
| OR2A5 | -0.48 | -0.6 | -0.38 | -0.46 | inactive |
| ZBED4 | -0.88 | -1.01 | -0.76 | -0.86 | inactive |
| MZB1 | -0.94 | -0.53 | -1.13 | -1.17 | inactive |
| PDE4B | -0.37 | -0.17 | -0.48 | -0.46 | inactive |

A portion of the results above:
| Gene | mean z-score | z-score, replicate A | z-score, replicate B | z-score, replicate C | call |
| --- | --- | --- | --- | --- | --- |
| RASL12 | -0.9 | -0.58 | -1.18 | -0.95 | inactive |
| TTLL5 | 0.59 | 0.69 | 0.6 | 0.48 | inactive |
| KRTAP5-11 | 0.68 | 0.88 | 0.58 | 0.59 | inactive |
| CHMP2B | -0.81 | -0.82 | -0.88 | -0.73 | inactive |
| MOB2 | -0.04 | 0.39 | -0.23 | -0.28 | inactive |

Continued:
| Gene | mean z-score | z-score, replicate A | z-score, replicate B | z-score, replicate C | call |
| --- | --- | --- | --- | --- | --- |
| TNNT3 | 0.32 | 0.41 | 0.39 | 0.17 | inactive |
| FERRY3 | 0.66 | 0.58 | 0.7 | 0.72 | inactive |
| BTD | -0.71 | -0.31 | -0.91 | -0.9 | inactive |
| ARHGAP24 | 1.05 | 0.79 | 0.96 | 1.4 | inactive |
| CYLC2 | 0.99 | 0.9 | 1.03 | 1.04 | inactive |
| CENPVL3 | -0.42 | -0.83 | -0.19 | -0.23 | inactive |
| ZNF765 | -0.75 | -0.9 | -0.71 | -0.63 | inactive |
| SMIM12 | 0.74 | 0.4 | 1.15 | 0.67 | inactive |
| TMEM218 | -0.39 | -0.16 | -0.61 | -0.41 | inactive |
| CSNK1A1 | 1.31 | 1.17 | 1.35 | 1.42 | inactive |
| LINC00299 | -0.03 | -0.2 | 0.19 | -0.08 | inactive |
| SLC39A13 | 1.31 | 1.31 | 0.94 | 1.67 | inactive |
| RPS9 | -1.59 | -2.05 | -1.48 | -1.24 | inactive |
| SPART | 0.01 | 0.2 | -0.14 | -0.03 | inactive |
| RPL14 | -4.61 | -4.81 | -4.47 | -4.55 | inactive |
| CDC20B | 2.07 | 1.96 | 2.44 | 1.82 | inactive |
| FUT5 | -0.22 | -0.21 | 0.03 | -0.47 | inactive |
| NFKBID | 0.12 | 0.2 | 0.16 | -0.01 | inactive |
| FLJ46211 (retired record) | -0.24 | -0.21 | -0.13 | -0.38 | inactive |
| ZNF350 | 0.05 | -0.48 | -0.24 | 0.88 | inactive |
| ATP5MJ | -0.67 | -0.93 | -0.36 | -0.71 | inactive |
| PSPH | -0.29 | -0.2 | -0.39 | -0.27 | inactive |
| LMBRD1 | -0.09 | 0.03 | -0.1 | -0.2 | inactive |
| ALAS2 | -1.18 | -0.74 | -1.46 | -1.32 | inactive |
| TMEM67 | 1 | 0.67 | 1.03 | 1.3 | inactive |
| PPWD1 | 0.11 | -0.08 | -0.09 | 0.5 | inactive |
| MRPL20 | 0.22 | 0.04 | 0.2 | 0.42 | inactive |
| ZNF223 | 0.82 | 0.77 | 0.78 | 0.92 | inactive |
| ACER2 | 0.96 | 1.05 | 0.93 | 0.9 | inactive |
| PFDN1 | 1.65 | 1.9 | 1.74 | 1.31 | inactive |
| CCDC160 | -0.02 | -0.08 | 0.13 | -0.1 | inactive |
| GLYATL1 | -0.17 | -0.03 | -0.22 | -0.27 | inactive |
| MARCHF4 | -0.14 | 0.22 | -0.62 | -0.01 | inactive |
